The text below walks through data of US5866397A, “Human protein tyrosine phosphatase OB protein” (Merck & Co., Inc., priority 1997, dated 1999).

One may read the IC50 as the concentration at which inhibition is half-maximal.

The test system of data set [1] is mononucleated TRAP positive cells. Put plainly: Formation of mononucleated TRAP positive cells in the co-culture. The format is cell-based, mouse. The following applies: ALN 10^-5 M, orthovanadate 10^-5 M, PAO 2×10^-7 M.
Data set [2] has as its system multinucleated TRAP positive osteoclast-like cells.
In data set [3] the test system is osteoblasts and bone marrow cells.
Setting [4] is: orthovanadate 10 μM or phenylarsine oxide 0.2 μM.

With `O=[As]c1ccccc1` (stereo not shown), the “development of mononucleated TRAP positive cells” value in data set [1] was “did not block”. In addition, the “inhibition of formation of multinucleated TRAP positive cells” value in data set [2] (2×10^-7 M, PAO added after two days, counted at day seven (FIG. 10C), geldanamycin) is “completely inhibited”. In data set [2] (inhibitor added to co-cultured cells, no concentration tied to statement), the “inhibition of formation of multinucleated TRAP positive cells, in words” value is reported as “strongly inhibited”. Also, the “inhibition of formation of the fused TRAP positive cells, in words” value in data set [2] (setting [4]) is “markedly inhibited”. For the same compound, the IC50 is 200 nM in data set [2] (read-out: IC50, formation of multinucleated TRAP positive cells, D3-treated mouse co-culture, seven days (FIG. 5A, 5B)) and 50 nM with rat osteoclasts (read-out: IC50, bone resorption, rat osteoclasts on bone slices, 24 hours, FIG. 7A, 7B). Further, the “reduction of the number of resorption pits” value with rat osteoclasts (10^-6 M, FIG. 9C, 1440 min, 1 µM) is listed as 80%. In addition, the “inhibition of bone resorption, in words” value in the data set with rat osteoclasts (rat osteoclasts on bone slices, 24 hours) is “potent inhibitors”. Besides, the “toxicity for osteoblasts or bone marrow cells” value in data set [3] (ALN 10^-5 M, orthovanadate 10^-5 M, PAO 2×10^-7 M) is given as “no apparent toxicity”. The “effects on the co-cultured osteoblasts” value in data set [3] (setting [4]) was “no ill effects”.
